The supplement of paper PMC3578754
Fold change is the IC50 on the isolate divided by the IC50 on a reference virus; 1 = unchanged, higher = more resistant. Changes are given against the subtype B consensus. No active / inactive call. The values were gathered from many studies (numbered anew) with different assays, which the source does not name. Most viruses are clinical isolates; some are laboratory strains or clones with known resistance changes. Isolates with mixed residues are left out; stretches that were not sequenced show no change. Round top values that many isolates share are read here as limits; other very high values and 0.1 may be limits too.

Columns and labels:
Assay in all cases: fold change of IC50 against reference virus; higher = more resistant
zalcitabine = compound: Nc1ccn([C@H]2CC[C@@H](CO)O2)c(=O)n1 [zalcitabine]
Experimental: (§1)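 Cell-culture drug susceptibility tests of virus bearing the reverse transcriptase of each isolate, gathered from many studies.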

didanosine = compound: O=c1[nH]cnc2c1ncn2[C@H]1CC[C@@H](CO)O1 [didanosine]
Experimental: as §1

zidovudine = compound: Cc1cn([C@H]2C[C@H](N=[N+]=[N-])[C@@H](CO)O2)c(=O)[nH]c1=O [zidovudine]
Experimental: as §1

abacavir = compound: Nc1nc(NC2CC2)c2ncn([C@H]3C=C[C@@H](CO)C3)c2n1 [abacavir]
Experimental: as §1

stavudine = compound: Cc1cn([C@H]2C=C[C@@H](CO)O2)c(=O)[nH]c1=O [stavudine]
Experimental: as §1

delavirdine = compound: CC(C)Nc1cccnc1N1CCN(C(=O)c2cc3cc(NS(C)(=O)=O)ccc3[nH]2)CC1 [delavirdine]
Experimental: as §1

nevirapine = compound: Cc1ccnc2c1NC(=O)c1cccnc1N2C1CC1 [nevirapine]
Experimental: as §1

Row | Test System | fold change of IC50 against reference virus (zalcitabine) | fold change of IC50 against reference virus (didanosine) | fold change of IC50 against reference virus (zidovudine) | fold change of IC50 against reference virus (abacavir) | fold change of IC50 against reference virus (stavudine) | fold change of IC50 against reference virus (delavirdine) | fold change of IC50 against reference virus (nevirapine)
1 | HIV-1 isolate 19 (reverse transcriptase changes: K102Q S162C M184I K277R, study 110) | 1.5 | 1.2 | 0.3 | 3.1 | 0.8 |  | 
2 | HIV-1 isolate 59 (reverse transcriptase changes: D67N K219Q, study 110) | 0.7 | 1 | 3.3 |  | 0.7 | 0.6 | 0.4
3 | HIV-1 isolate 103 (reverse transcriptase changes: K102Q Q151M S162C K277R I293V R358K V435I S468P K550G, study 4) | 4 | 2.9 | 20 |  | 3 |  | 1
4 | HIV-1 isolate 160 (reverse transcriptase changes: K122E F214L A272P K277R M357T A376T A400T N447S D460N S468T S519N, study 77) | 1 | 1 | 1 |  | 1 |  | 1
5 | HIV-1 isolate 243 (reverse transcriptase changes: L74V K122E K173R Q174K I178M M184V Q207E A272P T286A, study 129) | 2 |  |  | 5 |  |  | 
6 | HIV-1 isolate 267 (reverse transcriptase changes: M41L D67N K70R M184V L210W T215Y, study 110) | 1.8 | 1.4 | 39.8 |  | 1.6 | 0.3 | 0.4
7 | HIV-1 isolate 302 (reverse transcriptase changes: K122E Q151M F214L A272P K277R M357T A376T A400T N447S D460N S468T S519N, study 77) | 20 | 5 | 10 |  | 3.1 |  | 1
8 | HIV-1 isolate 332 (reverse transcriptase changes: T69G, study 49) | 1 | 1 | 1 |  | 1 |  | 
9 | HIV-1 isolate 350 (reverse transcriptase changes: I5F E28Q K46Q T58S K64R R125K K249P S251L W252P, study 40) | 1 | 2 | 6 |  | 3 | 2 | 1
10 | HIV-1 isolate 480 (reverse transcriptase changes: T69N, study 49) | 8 | 5 | 7 |  | 3 |  | 
11 | HIV-1 isolate 537 (reverse transcriptase changes: M41L L210W T215F, study 110) | 0.4 | 0.9 | 22.1 |  | 2 | 0.2 | 0.2
12 | HIV-1 isolate 608 (reverse transcriptase changes: K20R V21I V35I M41L K43E E44A D67N K102Q V118I K122E I135T M184V G196E L205F H208Y L210W R211K T215Y E224D A272P I293V, study 4) | 3 | 3.4 | 470 |  | 5 |  | 1
13 | HIV-1 isolate 624 (reverse transcriptase changes: T69S, study 49) | 4 | 3 | 2 |  | 2 |  | 
14 | HIV-1 isolate 666 (reverse transcriptase changes: V75I F77L K102Q Q151M S162C K277R I293V R358K V435I S468P K550G, study 4) | 6 | 5 | 40 |  | 5 |  | 
15 | HIV-1 isolate 744 (reverse transcriptase changes: T69D, study 49) | 8 | 3 | 1 |  | 1 |  | 
16 | HIV-1 isolate 804 (reverse transcriptase changes: L74V K122E F214L A272P K277R A376T A400T D460N S468T H483Y K512Q S519N, study 20) | 18 | 6 | 1 |  | 1.7 |  | 

Row | Test System | fold change of IC50 against reference virus (zalcitabine) | fold change of IC50 against reference virus (didanosine) | fold change of IC50 against reference virus (zidovudine) | fold change of IC50 against reference virus (abacavir) | fold change of IC50 against reference virus (stavudine) | fold change of IC50 against reference virus (delavirdine) | fold change of IC50 against reference virus (nevirapine)
17 | HIV-1 isolate 837 (reverse transcriptase changes: T39A A62V S68G V75I F77L A98S F116Y I135V Q151M R172K Q174H R211G F214L K219E V245M, study 23) | 9 | 13 | 1000 |  | 17 |  | 
18 | HIV-1 isolate 894 (reverse transcriptase changes: F77L F116Y K122E Q151M F214L A272P K277R M357T A376T A400T N447S D460N S468T S519N, study 77) | 46 | 43 | 320 |  | 100 |  | 1
19 | HIV-1 isolate 929 (reverse transcriptase changes: D67N T69D K70R K103N M184V K219Q, study 110) | 2.2 | 1.2 | 2.8 |  | 1.5 | 145 | 195
20 | HIV-1 isolate 945 (reverse transcriptase changes: M41L L74V A98G M184V T215Y, study 110) | 2 | 1.8 |  |  | 1.1 | 1.4 | 4.7
21 | HIV-1 isolate 986 (reverse transcriptase changes: L74V K122E M184V F214L A272P K277R A376T A400T D460N S468T H483Y K512Q S519N, study 144) | 5 | 4 |  | 8.5 | 2 |  | 
22 | HIV-1 isolate 989 (reverse transcriptase changes: K102Q S162C I178V K277R I293V K347R R358K V435I S468P, study 4) | 1 | 1 | 1 |  | 1 |  | 1
23 | HIV-1 isolate 1023 (reverse transcriptase changes: A62V V75I F77L F116Y K122E Q151M F214L A272P K277R M357T A376T A400T N447S D460N S468T S519N, study 77) | 46 | 43 | 320 |  | 69 |  | 1
24 | HIV-1 isolate 1034 (reverse transcriptase changes: K20R T39K M41L K43E E44D V60I D67N T69D K102Q V118I K122E M184V Q207E L210W R211K T215Y V245E A272P K277R I293V E297K, study 80) | 4 | 2.9 | 500 |  | 4 |  | 2
25 | HIV-1 isolate 1110 (reverse transcriptase changes: M41L D67N M184V L210W T215Y, study 110) | 0.7 | 1.5 | 21.4 |  | 2.8 | 0.2 | 0.2
26 | HIV-1 isolate 1218 (reverse transcriptase changes: A62V S68G V75I F77L A98S F116Y I135T Q151M I178M G196E I202V R211G, study 113) | 10 | 5 | 950 |  | 71 |  | 
27 | HIV-1 isolate 1335 (reverse transcriptase changes: T69A, study 49) | 1 | 1 | 5 |  | 2 |  | 
28 | HIV-1 isolate 1421 (reverse transcriptase changes: K122E F214L A272P K277R, study 113) | 1 | 1 | 1 |  | 1 | 1 | 1
29 | HIV-1 isolate 1547 (reverse transcriptase changes: K65R K122E F214L A272P K277R A376T A400T D460N S468T H483Y K512Q S519N, study 144) | 2 | 3 |  | 3 | 2 |  | 
30 | HIV-1 isolate 1548 (reverse transcriptase changes: A98S I135T Q174L G196E R211G, study 113) | 1 | 1 | 1.5 |  | 7.1 |  | 
31 | HIV-1 isolate 1550 (reverse transcriptase changes: L74V K102Q S162C K277R, study 110) | 1.2 | 1.8 | 1.1 |  | 0.9 |  | 
32 | HIV-1 isolate 1584 (reverse transcriptase changes: V75T K102Q S162C K277R, study 110) | 1.4 | 1.2 | 0.6 |  | 1.9 |  | 
